Taken from: PubChem BioAssay AID1259414 (Drosophila RNAi Screening Center, 2018)

Assay: 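Host factors increasing or decreasing Wolbachia levels in cultured fly cells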 (primary screen)
System: Drosophila JW18 cells infected with Wolbachia
Reagents: long dsRNA against Drosophila genes, 0.25 µg dsRNA per well of a 384-well plate
Timing: 5 days
Challenge: cells persistently infected with Wolbachia before knock-down; no added drug
Detection: 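Automated imaging of bacterial rRNA staining divided by host cell count, reported as plate-normalised robust z-score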
Direction: Wolbachia per cell robust z: higher = more Wolbachia per host cell than the plate typical
Rule for the call: 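Active if absolute robust z reaches 1.5 in two or more of three replicates, leaving out multi- or no-target dsRNAs, genes unexpressed in JW18 and A1 wells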
The screen tested about 24,000 reagents; below is a random part of those that have a named target and a result. Over the whole deposit, about 1,210 (5%) got an active call. 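Inactive calls also include excluded dsRNAs with several or no targets, genes unexpressed in JW18, and well A1, regardless of score.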 Unmarked entries are inactive. A plus sign joins genes that one reagent is predicted to hit. No sequences are given here.

CG2201 [DRSC03721] → Wolbachia per cell robust z, rep 1 = -6.6; Wolbachia per cell robust z, rep 2 = -0.145; Wolbachia per cell robust z, rep 3 = -0.176
Usp10 [DRSC08282] → Wolbachia per cell robust z, rep 1 = 0.24; Wolbachia per cell robust z, rep 2 = -0.219; Wolbachia per cell robust z, rep 3 = 0.115
Usp10 [DRSC08373] → Wolbachia per cell robust z, rep 1 = 1.79; Wolbachia per cell robust z, rep 2 = 0.791; Wolbachia per cell robust z, rep 3 = 1.33
CG34253 + lncRNA:CR32194 [DRSC09531] → Wolbachia per cell robust z, rep 1 = 0.307; Wolbachia per cell robust z, rep 2 = 0.72; Wolbachia per cell robust z, rep 3 = -3.7
CG6220 [DRSC06969] → Wolbachia per cell robust z, rep 1 = 0.863; Wolbachia per cell robust z, rep 2 = 0.806; Wolbachia per cell robust z, rep 3 = 0.662
atos [DRSC07318] → Wolbachia per cell robust z, rep 1 = 0.314; Wolbachia per cell robust z, rep 2 = -3.84; Wolbachia per cell robust z, rep 3 = 0.511
CG13551 [DRSC21847] → Wolbachia per cell robust z, rep 1 = -0.451; Wolbachia per cell robust z, rep 2 = -1.64; Wolbachia per cell robust z, rep 3 = -0.178
CG13551 [DRSC41274] → Wolbachia per cell robust z, rep 1 = 0.235; Wolbachia per cell robust z, rep 2 = 0.0564; Wolbachia per cell robust z, rep 3 = -0.324
CG13559 [DRSC04197] → Wolbachia per cell robust z, rep 1 = -0.203; Wolbachia per cell robust z, rep 2 = 0.0403; Wolbachia per cell robust z, rep 3 = 0.874

Records listed so far whose gene name starts with U or u:
Usp10 [DRSC08282] → Wolbachia per cell robust z, rep 1 = 0.24; Wolbachia per cell robust z, rep 2 = -0.219; Wolbachia per cell robust z, rep 3 = 0.115
Usp10 [DRSC08373] → Wolbachia per cell robust z, rep 1 = 1.79; Wolbachia per cell robust z, rep 2 = 0.791; Wolbachia per cell robust z, rep 3 = 1.33

The listing continues:
ken [DRSC23196] → Wolbachia per cell robust z, rep 1 = 0.218; Wolbachia per cell robust z, rep 2 = 0.376; Wolbachia per cell robust z, rep 3 = 0.00713
ken [DRSC40815] → Wolbachia per cell robust z, rep 1 = -0.723; Wolbachia per cell robust z, rep 2 = -0.0769; Wolbachia per cell robust z, rep 3 = -0.622
Stt3A [DRSC20514] → Wolbachia per cell robust z, rep 1 = 0.0102; Wolbachia per cell robust z, rep 2 = -0.533; Wolbachia per cell robust z, rep 3 = -0.742
Stt3A [DRSC24884] → Wolbachia per cell robust z, rep 1 = 0.438; Wolbachia per cell robust z, rep 2 = 0.288; Wolbachia per cell robust z, rep 3 = -0.462
CG44837 [DRSC10130] → Wolbachia per cell robust z, rep 1 = 0.781; Wolbachia per cell robust z, rep 2 = 0.398; Wolbachia per cell robust z, rep 3 = -0.342
CG44837 [DRSC10133] → Wolbachia per cell robust z, rep 1 = 0.273; Wolbachia per cell robust z, rep 2 = 0.352; Wolbachia per cell robust z, rep 3 = 0.858
CG44837 [DRSC10558] → Wolbachia per cell robust z, rep 1 = 0.512; Wolbachia per cell robust z, rep 2 = -0.487; Wolbachia per cell robust z, rep 3 = 1.22
CG44837 [DRSC25062] → Wolbachia per cell robust z, rep 1 = 1.13; Wolbachia per cell robust z, rep 2 = 0.239; Wolbachia per cell robust z, rep 3 = 1.38
CG44837 [DRSC28859] → Wolbachia per cell robust z, rep 1 = -0.245; Wolbachia per cell robust z, rep 2 = 0.229; Wolbachia per cell robust z, rep 3 = 0.323
tow [DRSC23125] → Wolbachia per cell robust z, rep 1 = -3.25; Wolbachia per cell robust z, rep 2 = 0.439; Wolbachia per cell robust z, rep 3 = 2.11
tow [DRSC26759] → Wolbachia per cell robust z, rep 1 = 0.541; Wolbachia per cell robust z, rep 2 = 0.241; Wolbachia per cell robust z, rep 3 = 0.82
BaraC [DRSC03885] → Wolbachia per cell robust z, rep 1 = 0.248; Wolbachia per cell robust z, rep 2 = -0.0455; Wolbachia per cell robust z, rep 3 = -0.968
nenya [DRSC13838] → Wolbachia per cell robust z, rep 1 = -0.329; Wolbachia per cell robust z, rep 2 = -4.77; Wolbachia per cell robust z, rep 3 = -0.62
Cul6 [DRSC09830] → Wolbachia per cell robust z, rep 1 = -0.907; Wolbachia per cell robust z, rep 2 = 0.187; Wolbachia per cell robust z, rep 3 = -4.72
CRMP [DRSC12073] → Wolbachia per cell robust z, rep 1 = -1.65 (active); Wolbachia per cell robust z, rep 2 = -3.13; Wolbachia per cell robust z, rep 3 = -1.58
CRMP [DRSC12345] → Wolbachia per cell robust z, rep 1 = -1.8; Wolbachia per cell robust z, rep 2 = 0.114; Wolbachia per cell robust z, rep 3 = 0.942
CRMP [DRSC27638] → Wolbachia per cell robust z, rep 1 = 0.744; Wolbachia per cell robust z, rep 2 = 0.114; Wolbachia per cell robust z, rep 3 = -0.523
